Experimental data: patent US20240327815A1

Target: spike of live SARS-CoV-2 Beta variant (SARS-CoV-2) (UniProt P0DTC2)
Test: cell-based or functional assay

Question: For REGEN-COV, which fold decrease of live virus neutralization efficacy, Beta compared to Delta is on record?
Answer: 2 fold
